PubChem BioAssay AID1259414 – Drosophila RNAi Screening Center, 2018
The screen tested about 24,000 reagents; shown is an unselected part of those with a known target gene and a result. Over the whole deposit, about 1,210 (5%) are marked active. 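Inactive calls also include excluded dsRNAs with several or no targets, genes unexpressed in JW18, and well A1, regardless of score.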 Reagents against one gene are numbered here. A plus sign joins genes that one reagent is predicted to hit.

- Purpose: 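Host factors increasing or decreasing Wolbachia levels in cultured fly cells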 (primary screen)
- System: Drosophila JW18 cells infected with Wolbachia
- Knock-down reagent: long dsRNA against Drosophila genes, 0.25 µg dsRNA per well of a 384-well plate
- Time to read-out: 5 days
- Challenge: cells persistently infected with Wolbachia before knock-down; no added drug
- Detection: 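Automated imaging of bacterial rRNA staining divided by host cell count, reported as plate-normalised robust z-score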
- Scale: Wolbachia per cell robust z: higher = more Wolbachia per host cell than the plate typical
- Active means: 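Active if absolute robust z reaches 1.5 in two or more of three replicates, leaving out multi- or no-target dsRNAs, genes unexpressed in JW18 and A1 wells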

CG8520 — Wolbachia per cell robust z, rep 1 = 0.743; Wolbachia per cell robust z, rep 2 = -6.54; Wolbachia per cell robust z, rep 3 = 0.648; activity call = inactive
DCTN5-p25 #1 — Wolbachia per cell robust z, rep 1 = -1.63; Wolbachia per cell robust z, rep 2 = -0.204; Wolbachia per cell robust z, rep 3 = 1.25; activity call = inactive
DCTN5-p25 #2 — Wolbachia per cell robust z, rep 1 = -0.996; Wolbachia per cell robust z, rep 2 = -0.283; Wolbachia per cell robust z, rep 3 = 0.229; activity call = inactive
CG10469 #1 — Wolbachia per cell robust z, rep 1 = 0.219; Wolbachia per cell robust z, rep 2 = -0.572; Wolbachia per cell robust z, rep 3 = 0.149; activity call = inactive
CG10469 #2 — Wolbachia per cell robust z, rep 1 = -0.81; Wolbachia per cell robust z, rep 2 = -1.87; Wolbachia per cell robust z, rep 3 = -1.25; activity call = inactive
CG15213 #1 — Wolbachia per cell robust z, rep 1 = -0.101; Wolbachia per cell robust z, rep 2 = 0.0181; Wolbachia per cell robust z, rep 3 = -2.81; activity call = inactive
CG15213 #2 — Wolbachia per cell robust z, rep 1 = -0.396; Wolbachia per cell robust z, rep 2 = -0.0812; Wolbachia per cell robust z, rep 3 = -0.682; activity call = inactive
apolpp #1 — Wolbachia per cell robust z, rep 1 = -0.496; Wolbachia per cell robust z, rep 2 = -8.41; Wolbachia per cell robust z, rep 3 = -0.0601; activity call = inactive
apolpp #2 — Wolbachia per cell robust z, rep 1 = 0.69; Wolbachia per cell robust z, rep 2 = 0.0872; Wolbachia per cell robust z, rep 3 = -0.499; activity call = inactive
Gyc89Db — Wolbachia per cell robust z, rep 1 = 0.773; Wolbachia per cell robust z, rep 2 = 0.264; Wolbachia per cell robust z, rep 3 = 0.45; activity call = inactive
CG16781 #1 — Wolbachia per cell robust z, rep 1 = 0.485; Wolbachia per cell robust z, rep 2 = -0.955; Wolbachia per cell robust z, rep 3 = -1.36; activity call = inactive
CG16781 #2 — Wolbachia per cell robust z, rep 1 = 0.893; Wolbachia per cell robust z, rep 2 = 0.301; Wolbachia per cell robust z, rep 3 = 0.669; activity call = inactive
CG13833 — Wolbachia per cell robust z, rep 1 = -0.803; Wolbachia per cell robust z, rep 2 = 0.254; Wolbachia per cell robust z, rep 3 = -5.79; activity call = inactive
CG42562 — Wolbachia per cell robust z, rep 1 = -0.152; Wolbachia per cell robust z, rep 2 = -0.0377; Wolbachia per cell robust z, rep 3 = -2.53; activity call = inactive
Shmt — Wolbachia per cell robust z, rep 1 = -1.03; Wolbachia per cell robust z, rep 2 = -0.439; Wolbachia per cell robust z, rep 3 = -1.85; activity call = inactive
spg #1 — Wolbachia per cell robust z, rep 1 = 0.341; Wolbachia per cell robust z, rep 2 = -3.12; Wolbachia per cell robust z, rep 3 = -6.24; activity call = active
spg #2 — Wolbachia per cell robust z, rep 1 = 0.834; Wolbachia per cell robust z, rep 2 = 0.15; Wolbachia per cell robust z, rep 3 = -0.608; activity call = inactive
Flad2 #1 — Wolbachia per cell robust z, rep 1 = 0.23; Wolbachia per cell robust z, rep 2 = -1.28; Wolbachia per cell robust z, rep 3 = -0.632; activity call = inactive
Flad2 #2 — Wolbachia per cell robust z, rep 1 = -2.11; Wolbachia per cell robust z, rep 2 = -2.16; Wolbachia per cell robust z, rep 3 = -0.0449; activity call = inactive
mRpL12 #1 — Wolbachia per cell robust z, rep 1 = 1.23; Wolbachia per cell robust z, rep 2 = -3.21; Wolbachia per cell robust z, rep 3 = -1.61; activity call = active
mRpL12 #2 — Wolbachia per cell robust z, rep 1 = 0.408; Wolbachia per cell robust z, rep 2 = 0.00941; Wolbachia per cell robust z, rep 3 = -0.215; activity call = inactive
CG31278 — Wolbachia per cell robust z, rep 1 = -4.11; Wolbachia per cell robust z, rep 2 = -0.431; Wolbachia per cell robust z, rep 3 = -3.84; activity call = active
CG14787 — Wolbachia per cell robust z, rep 1 = 0.452; Wolbachia per cell robust z, rep 2 = -1.48; Wolbachia per cell robust z, rep 3 = 1.03; activity call = inactive
Rab9D + Rab9E + Rab9Db + 1 more — Wolbachia per cell robust z, rep 1 = -3; Wolbachia per cell robust z, rep 2 = -0.625; Wolbachia per cell robust z, rep 3 = 2.5; activity call = inactive

As entered above:
For “Wolbachia per cell robust z, rep 3”, CG14787 reads 1.03
Entry of Flad2 #1 in “activity call”: inactive
